The values below come from patent publication US20030100094.

Protein sequences, listed by entry. Tags and fused reporters are not part of them. Residues count along the entry.
UniProt P00642, 2-277: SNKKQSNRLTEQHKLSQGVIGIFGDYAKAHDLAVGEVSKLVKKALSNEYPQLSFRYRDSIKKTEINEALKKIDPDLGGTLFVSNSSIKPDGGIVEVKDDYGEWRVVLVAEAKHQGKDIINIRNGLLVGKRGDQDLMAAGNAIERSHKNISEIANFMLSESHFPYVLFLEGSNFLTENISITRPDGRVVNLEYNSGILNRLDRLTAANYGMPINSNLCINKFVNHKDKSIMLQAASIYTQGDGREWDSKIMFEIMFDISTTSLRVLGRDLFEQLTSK

This data set addresses EcoRI (UniProt P00642). Description: enzyme reaction in vitro. The settings on record: control, single EcoRI site linearised; purified recombinant protein; protein details: NEB R0101; only the site is given.

Construct, isoform or probe ends are uncertain for at least one entry.

Take “CCTCAGC (double strand) [supercoiled pUB plasmid (two BbvCI sites, one EcoRI site)]”: the “activity on this sequence” value is given as “active”.
